Experiment: xn = mol fraction of the nth substance listed
Details: 101 kPa

CCC[N+]1(C)CCCC1.O=S(=O)(F)[N-]S(=O)(=O)F + O=S(=O)(F)[N-]S(=O)(=O)F.[K+]
Details | electrical conductivity [S/m] | mass density [kg/m3] | viscosity [mPa·s]
258 K, x2 = 0.25 | 0.045 | – | –
263 K, x2 = 0.1 | 0.15 | – | –
263 K, x2 = 0.15 | 0.12 | – | –
263 K, x2 = 0.2 | 0.088 | – | –
263 K, x2 = 0.25 | 0.065 | – | –
268 K, x2 = 0.05 | 0.23 | – | –
268 K, x2 = 0.1 | 0.19 | – | –
268 K, x2 = 0.15 | 0.15 | – | –
268 K, x2 = 0.2 | 0.12 | – | –
268 K, x2 = 0.25 | 0.091 | – | –
273 K, x2 = 0.05 | 0.29 | – | 125
273 K, x2 = 0.15 | 0.2 | – | 200
273 K, x2 = 0.2 | 0.16 | – | 256
273 K, x2 = 0.25 | 0.12 | – | 342
278 K, x2 = 0.05 | 0.36 | 1374 | 100
278 K, x2 = 0.1 | 0.31 | 1393.5 | 123
278 K, x2 = 0.15 | 0.26 | 1414.6 | 155
278 K, x2 = 0.2 | 0.21 | 1437 | 195
278 K, x2 = 0.25 | 0.16 | 1461 | 255
283 K, x2 = 0.05 | 0.44 | 1369.8 | 81.3
283 K, x2 = 0.1 | 0.38 | 1389.3 | 98.2
283 K, x2 = 0.15 | 0.32 | 1410.3 | 123
283 K, x2 = 0.2 | 0.26 | 1432.6 | 152
283 K, x2 = 0.25 | 0.21 | 1456.6 | 196
288 K, x2 = 0 | 0.62 | 1347.2 | 56.9
288 K, x2 = 0.05 | 0.53 | 1365.7 | 67
288 K, x2 = 0.1 | 0.47 | 1385.1 | 80
288 K, x2 = 0.15 | 0.39 | 1406.1 | 98.1
288 K, x2 = 0.2 | 0.32 | 1428.4 | 120
293 K, x2 = 0 | 0.72 | 1343.1 | 47.8
293 K, x2 = 0.05 | 0.63 | 1361.6 | 55.7
293 K, x2 = 0.1 | 0.56 | 1381 | 65.9
293 K, x2 = 0.2 | 0.4 | 1424.1 | 96.8
293 K, x2 = 0.25 | 0.33 | 1447.9 | 121
298 K, x2 = 0 | 0.84 | 1339.1 | 40.6
298 K, x2 = 0.05 | 0.73 | 1357.5 | 46.9
298 K, x2 = 0.1 | 0.66 | 1376.9 | 55.6
298 K, x2 = 0.15 | 0.57 | 1397.7 | 66
298 K, x2 = 0.2 | 0.48 | 1419.8 | 78.2
298 K, x2 = 0.25 | 0.4 | 1443.6 | 98.4
303 K, x2 = 0 | 0.97 | 1335.1 | 34.8
303 K, x2 = 0.1 | 0.77 | 1372.7 | 46.9
303 K, x2 = 0.15 | 0.67 | 1393.5 | 54.9
303 K, x2 = 0.2 | 0.57 | 1415.6 | 64.7
303 K, x2 = 0.25 | 0.48 | 1439.3 | 79.4
308 K, x2 = 0 | 1.1 | 1331.1 | 30
308 K, x2 = 0.05 | 0.98 | 1349.5 | 34.2
308 K, x2 = 0.1 | 0.89 | 1368.7 | 39.9
308 K, x2 = 0.2 | 0.67 | 1411.4 | 54.1
308 K, x2 = 0.25 | 0.57 | 1435 | 65.7
313 K, x2 = 0 | 1.25 | 1327.2 | 26.1
313 K, x2 = 0.05 | 1.11 | 1345.4 | 29.8
313 K, x2 = 0.1 | 1.02 | 1364.6 | 34.3
313 K, x2 = 0.15 | 0.91 | 1385.2 | 39.4
313 K, x2 = 0.2 | 0.79 | 1407.2 | 45.6
318 K, x2 = 0.05 | 1.26 | 1341.4 | 26
318 K, x2 = 0.1 | 1.16 | 1360.5 | 29.6
318 K, x2 = 0.15 | 1.04 | 1381.1 | 33.8
318 K, x2 = 0.2 | 0.91 | 1403.1 | 38.9
318 K, x2 = 0.25 | 0.79 | 1426.6 | 46.7
323 K, x2 = 0.1 | 1.31 | 1356.5 | 25.8
323 K, x2 = 0.15 | 1.18 | 1377.1 | 29.1
323 K, x2 = 0.2 | 1.04 | 1398.9 | 33.4
323 K, x2 = 0.25 | 0.91 | 1422.4 | 39.8
328 K, x2 = 0 | 1.74 | 1315.3 | 17.8
328 K, x2 = 0.05 | 1.58 | 1333.5 | 19.8
328 K, x2 = 0.1 | 1.47 | 1352.5 | –

Source: a compilation of properties of binary mixtures (doi:10.1021/acs.jpcc.7b06523)
